In paper PMC10100877, “Identification of Small-Molecule Inhibitors of the Salmonella FraB Deglycase Using a Live-Cell Assay” (Microbiology Spectrum, 2023):
Only a part of the results on these compounds is given; other tests are left out.

The chains behind the UniProt entries cited, without tags or fusion partners. Residues count along the entry.
UniProt Q8ZLD0, 1-325: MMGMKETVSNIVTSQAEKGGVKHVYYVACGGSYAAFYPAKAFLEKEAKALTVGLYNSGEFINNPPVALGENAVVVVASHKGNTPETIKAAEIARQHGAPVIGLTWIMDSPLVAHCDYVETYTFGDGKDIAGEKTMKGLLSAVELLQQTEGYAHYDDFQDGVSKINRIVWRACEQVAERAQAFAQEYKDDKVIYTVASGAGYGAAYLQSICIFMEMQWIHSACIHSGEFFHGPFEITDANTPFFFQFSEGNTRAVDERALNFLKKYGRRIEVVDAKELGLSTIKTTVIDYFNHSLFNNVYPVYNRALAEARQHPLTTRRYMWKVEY

Experiments:
[1] = tested on: wild-type Salmonella (ASD200) live cells; assay: Live-cell growth assay, concentration-response (IC50/IC90) of the top 8 purchased compounds; type: cell-based, Salmonella enterica serovar Typhimurium; conditions: M9 minimal medium, 5 mM glucose, 1 mM F-Asn, 17-h time point, 95% CI in brackets
[2] = target: recombinant FraB (Salmonella enterica subsp. enterica serovar Typhimurium, UniProt Q8ZLD0); conditions: read-out: IC50 with recombinant FraB (mean ± SE); 0.2 μM His6-FraB, 1 mM 6-P-F-Asp, 30 min preincubation; NI = no inhibition observed with 1 mM compound

## Nc1nonc1-c1no[n+]([O-])c1-c1nonc1N
[1]; read-out: IC50 with live cells, value (95% CI), concentration that inhibits growth to 50%
  IC50: 89 µM
[1]; read-out: IC90 with live cells, value (95% CI), concentration that inhibits growth to 90%
  IC90: 259 µM
[2]
  IC50: > 500 µM
